Consider 17 compounds from patent publication US10022359B2, “1,9-diazaspiro undecane compounds having multimodal activity against pain” (dated 2018).

Where only a bound is given, the exact number is not on record here.

The assay concerns human σ1 receptor and human μ-opioid receptor. The experiment in a line: Human σ1 receptor and human μ-opioid receptor radioligand assays (dual binding). Conditions: read-out: μ and σ1 dual binding; combined class for Ki-μ ([3H]-DAMGO, transfected CHO-K1 membranes) and Ki-σ1 ([3H](+)-pentazocine, transfected HEK-293 membranes).
Consider `COc1cccc(CN2CCOCC23CCN(CCc2ccccc2)CC3)c1`, for which the Ki was below 0.5 µM.

As for `c1ccc(CCN2CCC3(CC2)COCCN3Cc2cccnc2)cc1`, the Ki is below 0.5 µM.

Turning to `c1ccc(CCN2CCC3(CC2)COCCN3CCc2ccccc2)cc1`, the Ki is below 0.5 µM.

`c1ccc(CCN2CCC3(CC2)COCCN3Cc2ccccn2)cc1`: the Ki was below 0.5 µM.

As for `COc1ccccc1CCN1CCC2(CC1)COCCN2Cc1ccccc1`, the Ki is below 0.5 µM.

For `c1ccc(CCN2CCC3(CC2)COCCN3Cc2ccccc2)cc1`, the Ki is below 0.1 µM.

Turning to `COc1cccc(CCN2CCC3(CC2)COCCN3Cc2ccccc2)c1`, the Ki is below 0.5 µM.

Regarding `CS(=O)(=O)Nc1cccc(CN2CCOCC23CCN(CCc2ccccc2)CC3)c1`, the Ki is below 0.5 µM.

Consider `Oc1ccc(CCN2CCC3(CC2)COCCN3Cc2ccccc2)cc1`, for which the Ki was below 0.1 µM.

In the case of `Oc1cccc(CCN2CCC3(CC2)COCCN3Cc2ccccc2)c1`, the Ki was below 0.1 µM.

`Oc1ccccc1CN1CCOCC12CCN(CCc1ccccc1)CC2`: the Ki was below 0.5 µM.

On to `Oc1cccc(CN2CCOCC23CCN(CCc2ccccc2)CC3)c1`, for which the Ki was below 0.5 µM.

For `c1ccc(CCN2CCC3(CC2)COCCN3Cc2ccncc2)cc1`, the Ki is below 0.5 µM.

On to `O=C(c1ccccc1)N1CCOCC12CCN(CCc1ccccc1)CC2`, for which the Ki was below 0.5 µM.

With `COc1ccc(CCN2CCC3(CC2)COCCN3Cc2ccccc2)cc1`, the Ki was below 0.5 µM.

In the case of `c1ccc(CN2CCOCC23CCN(CCc2cccnc2)CC3)cc1`, the Ki is below 0.5 µM.

Regarding `Oc1ccccc1CCN1CCC2(CC1)COCCN2Cc1ccccc1`, the Ki is below 0.5 µM.
